Results deposited as PubChem BioAssay AID504761 (Drosophila RNAi Screening Center, 2011).

Purpose: 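Fly genes whose silencing reduces dengue virus type 2 infection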 (primary screen)
System: D.Mel-2 cells from Drosophila
Reagents: long dsRNA against Drosophila genes
Conditions: infection with dengue virus type 2; dose and infection time not stated
Measurement: 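Cells stained for dengue envelope protein and imaged; percent of infected cells per well on duplicate plates, ranked by infection, with stained nuclei counted for cell number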
Scale: infection score: higher = more virus-infected cells
Hit rule: 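Low infection ranks in the two replicates (chance level up to 0.065) followed by a retest with a 1.5-fold or larger significant decrease, p below 0.05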
Meaning of the calls: active = confirmed: knock-down lowers infection; inactive = not picked or not confirmed
The deposit covers about 22,000 reagents; this is a random part of those with a known target gene and a result. In the full data, 116 (0.52%) got an active call. 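Calls depend on retest data that are not deposited; infection was ranked per plate without normalising between plates; the unit of the infection score is not given.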 A number with no mark means an inactive call. Names joined by + are all predicted targets of the reagent. Further read-outs or replicates are left out here. The record does not give: the amount of reagent, the time to read-out.

The first 3 records, ahead of the listing:
target gene,dsRNA,"infection score, replicate 1","infection score, replicate 2"
l(3)neo43,DRSC14988,5.23,11.8
CG31729,DRSC02524,22.4,16.6
CG31729,DRSC02946,7.87,19.4

The list itself, repeating the preview:
target gene,dsRNA,"infection score, replicate 1","infection score, replicate 2"
l(3)neo43,DRSC14988,5.23,11.8
CG31729,DRSC02524,22.4,16.6
CG31729,DRSC02946,7.87,19.4
CG31729,DRSC25841,3.12,6.2
Atat,DRSC10392,14.8,15.3
ctrip,DRSC12242,5.48,5.88
ctrip,DRSC12287,9.37,12.3
ctrip,DRSC22449,0.73,6.71
ctrip,DRSC23512,24.6,13.4
ctrip,DRSC27589,2.29,10.5
CG2217 + CG42740,DRSC14141,4.21,10.2
btz,DRSC14566,10.1,14.2
btz,DRSC23613,9.94,17
CG32845,DRSC07867,4.88,4.32
CG32845,DRSC28003,11.3,7.52
GILT2,DRSC14196,2.82,6.77
CG13231,DRSC06351,3.7,18.3
CG13231,DRSC26554,2.94,13.2
CG10600,DRSC02074,14,21.8
CG7786,DRSC07045,12.3,8.54
CG7786,DRSC26604,1.7,1.96
unc-5,DRSC05545,13.3,6.8
unc-5,DRSC07711,4.39,2.27
unc-5,DRSC07712,15.8,12.9
CG42336,DRSC05273,0.27,0.42
CG42336,DRSC06332,10.6,21
CG42336,DRSC06333,7.38,6.6
CG42336,DRSC28729,24.3,22
CG42336,DRSC29534,16.5,20.7
CG13996,DRSC02328,6.16,5.92
sov,DRSC17930,4.04,3.3
sov,DRSC24302,3.54,4.76
rngo,DRSC19903,2.52,5
rngo,DRSC26936,4.83,8
ken,DRSC23196,3.47,7.56
CG18508,DRSC18155,0.66,3.54
CG18508,DRSC25633,3.6,5.28
run,DRSC20584,4.01,5.71
run,DRSC21515,3.23,2.37
run,DRSC27251,21.1,12.4
